From paper PMC6380599 (PLoS Pathogens, 2019)

Columns and labels:
[1] = target: SFTSV Gn glycoprotein ectodomain, strain SD4, Fc fusion (Gn-Fc) (SFTSV (Dabie bandavirus) strain SD4, UniProt F1BDJ0, strain); test: ELISA; details: both partners purified
[2] = target: SFTSV Gn glycoprotein ectodomain, strain HB29, Fc fusion (Gn-Fc) (SFTSV (Dabie bandavirus) strain HB29, UniProt A0A0B5A886, strain); test: ELISA; details: both partners purified

B1: Ab10 IgG1 antibody (antibody, V domains shown)
VH: EVQLVESGGGVVQPGRSLRLSCAASGFTFSGYGIHWVRQAPGKGLEWVALISYDGSNKYYADSVKGRFTISRDNSKNTLYLQMNSLRAEDTAVYYCAKDRDYFGSGFFDYWGQGTLVTVSS
VL: ELVMTQSPSSLSASVGDTVTITCRASQSIYTYLNWYHQTPGKAPKLLISAASSLQSGVPSRFSGSGSGTDFTLTISSLQPEDFATYYCQQYADVPVTFGGGTKLEIK
notes: also called Ab10 mAb; human IgG1 monoclonal antibody Ab10; source: HEK 293F, transfected, purified from culture supernatant (MabSelect)
binding result [1]: binds
binding result [2]: binds
